Measured values reported in article PMC9603561, “Anticoagulants as Potential SARS-CoV-2 M^pro Inhibitors for COVID-19 Patients: In Vitro, Molecular Docking, Molecular Dynamics, DFT, and SAR Studies” (International Journal of Molecular Sciences, 2022).

Tested on: SARS-CoV-2 (hCoV-19/Egypt/NRC-03/2020)
Assay: Crystal violet assay, SARS-CoV-2 inhibitory assay (cell-based)
Details: SI = CC50/IC50, Vero E6 cells

## [H]/N=C(/N)c1ccc(NCc2nc3cc(C(=O)N(CCC(=O)O)c4ccccn4)ccc3n2C)cc1 [Dabigatran, dabigatran]
  Safety Index (SI): 15.10
Listed as dabigatran
  Safety Index (SI): 15.1

## CO[C@H]1O[C@H](COS(=O)(=O)O)[C@@H](O[C@@H]2O[C@@H](C(=O)O)[C@@H](O[C@H]3O[C@H](COS(=O)(=O)O)[C@@H](O[C@@H]4O[C@H](C(=O)O)[C@@H](O[C@H]5O[C@H](COS(=O)(=O)O)[C@@H](O)[C@H](O)[C@H]5NS(=O)(=O)O)[C@H](O)[C@H]4O)[C@H](OS(=O)(=O)O)[C@H]3NS(=O)(=O)O)[C@H](O)[C@H]2OS(=O)(=O)O)[C@H](O)[C@H]1NS(=O)(=O)O [Fondaparinux sodium, fondaparinux sodium]
  Safety Index (SI): 17.60
Listed as fondaparinux sodium
  Safety Index (SI): 17.6

## CCCSc1nc(N[C@@H]2C[C@H]2c2ccc(F)c(F)c2)c2nnn([C@@H]3C[C@H](OCCO)[C@@H](O)[C@H]3O)c2n1 [Ticagrelor, ticagrelor]
  Safety Index (SI): 25.33

## heparin
  Safety Index (SI): 2.47
Listed as heparin
  Safety Index (SI): 2.474
